Reference: the supplement of paper PMC9931576
Human monoclonal antibodies against the spike receptor-binding domain (heavy:light variable regions). IC50 against pseudoviruses bearing the spike of naturally observed variants; lower = stronger; >10 µg/ml means not reached at the top dose. No active / inactive call. The stated detection limit is 0.0005 µg/ml; values near or below 0.001 µg/ml lie at the floor of the assay.

B1: BD55-822 (protein)
chain 1: QVQLVQSGAEVKKPGSSVKVSCKASGGTFSRYAISWVRQAPGQGLEWMGRIIPILDIANFAQKFQDRVTITADKSTTTAYMELSSLRSEDTAVYYCAREEYYYDRSGSYQYGWFDPWGQGTLVTVSS
chain 2: SYELTQPPSVSVSPGQTARITCSGDALPEKLAYWYQQKSGQAPVLVIYEDSKRPSGIPERFSGSSSGTMATLTISGAQVKDEADYYCYSTDSSGDHRGVFGTGTKVTVL
B2: BD55-824 (protein)
chain 1: QLQLQESGPGLVKPSETLSLTCTVSGGSISSRCSYWGWIRQPPGKGLEWIGSMYYSGATYYNPSLKSRVTISVDTSNNQFSLKMSSVTAADTALYYCAREEGHCSSWGGVYFDHWGQGILVTVSS
chain 2: QSVLTQPPSVSGAPGQRVTISCTGSSSNIGAGYDVHWYQHPPGTAPKLLIYGNNNRPSGVPDRFSGSKSGASASLAITGLQAEDEADYYCQSYDTSLTARVFGGGTRLTVL
B3: BD55-300 (protein)
chain 1: QLHLQESGPGLVKASETLSLTCTVSADSISSSRYYWGWIRQSPGKGLEWIGSIFYSGSTYYNPSLKSRVTISVDTSKNQFSLRLSSVTAADTALYYCARHLAGIDYWGQGTLVTVSS
chain 2: DIQMTQSPSFLSASVGDRVTITCRASQGISNSLAWYQQKPGKAPNLLLYAASTLESGVPSRFSGSGSGTDFTLTVSSLQPEDFATYYCQQYYDTLFTFGPGTKVDIK
B4: BD-713 (protein)
chain 1: EVQLVESGGGLVQPGRSLRLSCAASGFTFDDYAMHWVRQAPGKGLEWVSGMSWNSGTIGYADSVKGRFTIIRDNAKNSLYLQMIRLRAEDTALYYCAKASPRLDTAMAPFDYWGQGTLVTVSS
chain 2: SYVLTQPPSVSVAPGKTARITCGGNNIGSKSVHWYQQKPGQAPALVIYYDNDRPSGLPERFSGSNSGNTATLTISRVEAGDEADYYCQVWHSSSDSLVFGGGTKLTVL
B5: BD55-828 (protein)
chain 1: EVQLVQSGAEVKKPGESLKISCKGSGYSFTNYWIGWVRQMPGKGLEWMGIIYPGDSDTRYSPSFQGQVTISADKSISTAYLQWSSLKASDTAMYYCASEMMDCSSASCYWLYPYFDYWGQGTLVTVSS
chain 2: QSALTQPASVSGSPGQSITISCTGTSSDVGGYNYVSWYQQHPGKAPKLMIYDVSNRPSGVSNRFSGSKSGNTASLTISGLQAEDEADYYCSSYTSSSSPIFGGGTKLTVL
B6: BD-692 (protein)
chain 1: EVQLVESGGGLVQPGGSLRLSCAASGFTFSSHGMNWVRQAPGKGLEWVSYISSRDSTIYYADSVKGRFTISRDNAKNSLYLQMNSLRDEDTAVYYCARDNSDYDYSFGAYYFDYWGQGTLVTVSS
chain 2: EIVLTQSPATLSLSPGERATVSCRASQSVSNFLAWYQQKPGQAPRLLIHDASNRATGIPARFSGSGSGTDFTLTISSLEPEDFAVYYCQQRRNWPPVTFGQGTRLEIK
B7: BD55-302 (protein)
chain 1: EVQLVESGGALVHPGRSLRLSCTASGFTFEDYAMHWVRQAPGKGLEWVSGVSWNSGTIGYADSVKGRFIISRDNAKNSLYLQMLSLRVEDTAFYYCAKHGGLLDTSLDQYYFDYWGQGTLVTVSS
chain 2: not shown
B8: BD-922 (protein)
chain 1: QVQLQQSGPGLMKPSQTLSLTCAISGDSVSSNSPAWNWIRQSPSRGLEWLGRTYYRSRWYNDYAVSVKSRITINSDTSKNQFSLQLNSVTPEDTAVYYCARVSLWYGDLSGAFDIWGQGTMVTVSS
chain 2: EIVLTQSPGTLSLSPGERATLSCRASQSVSNNYLGWYQQKPGQAPRLLIYGASSRATGIPDRFSGSGSGTDFTLTISRLEPEDFAVYYCQQYGSSSITFGPGTKVDIR
B9: BD55-833 (protein)
chain 1: EVQLVQSGAEVKKPGESLRISCKGSGYSFISYWISWVRQMPGKGLEWMGRIDPSDSYTNYSPSFQGHVTISADKSISTAYLQWSSLKASDTAIYYCARQSYGDYSDFDYWGQGTLVTVSS
chain 2: EIVLTQSPGTLSLSPGERATLSCRASQSVSSSYLAWYQQKPGQAPRLLISGASSRATDIPDRFSGSGSGTDFTLTISRLEPEDFAVYYCQQYYSSPPTFGQGTKVEIK
B10: BD55-389 (protein)
chain 1: EVQLVESGGGLVQPGRSLRLSCAASGFTFDDYAMYWVRQAPGKGLEWVSGISWNSGSIHYADSVKGRFTISRDNAKNSLYLQMNSLRAEDTALYYCAKSQLGELLFGPDYWGQGTLVTVSS
chain 2: QSVLTQPPSASGTPGQRVTISCSGSTSNIETYAVNWYQQLPGTAPKLLIYSNNQRPSGLPDRFSGSKSGTSASLAISGLQSEDEATYYCAAWDDSLNGHWVFGGGTKLTVL
B11: BD55-75 (protein)
chain 1: QVQLVESGGGVVQPGRSLRLSCAASGFTFSRHAMHWVRQAPGKGLEWVAVLSYDGTDKYYADFVKGRFTISRDSANDMLYLQMDSLGAEDTAVYYCAREDADYGDADFDSWGQGTLVTVSS
chain 2: QSALTQPRSVSGSPGQSVTISCTGTSSDVGGYNYVSWYQQHPGKAPKLMIHNVIKRPSGVPDRFSGSKSGNTASLTISGLQAEDEADYYCCSYAGRFWVFGGGTKLAVL
B12: BD55-311 (protein)
chain 1: QVQLQESGPGLVKPSQTLSLTCTVSGGSINIGGFYWTWIRQHPGKGLEWIGYISYSGSTSYNPSLRSRVTVSVDMSKNQFSLRLSSVTAADTAVYYCARGQEFWFDPWGQGTLVTVSS
chain 2: SYVVTQPPSVSVAPGKTARITCGGNNIGSKSVHWYQQKPGQAPVLVMYYDSDRPSGIPERFSGSNSGNTATLTISRVEAGDEADYYCQVWESSSDHPYVFGTGTKVTVL
B13: BD-693 (protein)
chain 1: EVQLVESGGGLVKPGGSLRLSCAASGFTFSLAYMSWVRQAPGKGLEWVGRIKSKTEGGTTDYAAPVKGRFTISRDDSKNTLYLQMNSLKTEDTAVYYCTTSIHARELRPPNAFDIWGQGTMVTVSS
chain 2: QSVLTQPPSVSEAPRQRVTISCSGSSSNIGNNAVNWYQQLPGKAPKLLIYYDDLLPSGVSDRFSGSKSGTSASLAISGLQSEDEADYYCAAWDDSLNGYVFGTGTKVTVL

How the values were obtained:
Experiment in all cases: pseudovirus neutralization IC50; higher = weaker neutralization
[1] = target: SARS-CoV-2 Omicron BA.1 spike pseudovirus
Experimental: (§1)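 Single-round VSV luciferase pseudovirus mixed with antibody dilutions for 1 h and put on Huh-7 cells for about a day; IC50 from the dose curve.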

[2] = target: SARS-CoV-2 Omicron BA.2 spike pseudovirus
Experimental: as §1

[3] = target: SARS-CoV-2 Omicron BA.2.75 spike pseudovirus
Experimental: as §1

[4] = target: SARS-CoV-2 Omicron BA.5 spike pseudovirus
Experimental: as §1

[5] = target: SARS-CoV-2 Omicron BQ.1.1 spike pseudovirus
Experimental: as §1

[6] = target: SARS-CoV-2 Omicron XBB spike pseudovirus
Experimental: as §1

[7] = target: SARS-CoV-2 early D614G spike pseudovirus
Experimental: as §1

Binder | pseudovirus neutralization IC50 [1] | pseudovirus neutralization IC50 [2] | pseudovirus neutralization IC50 [3] | pseudovirus neutralization IC50 [4] | pseudovirus neutralization IC50 [5] | pseudovirus neutralization IC50 [6] | pseudovirus neutralization IC50 [7]
B1 | 1.34 µg/mL | > 10 µg/mL | > 10 µg/mL | > 10 µg/mL | > 10 µg/mL | > 10 µg/mL | 0.123 µg/mL
B2 | > 10 µg/mL | > 10 µg/mL | > 10 µg/mL | > 10 µg/mL | > 10 µg/mL | > 10 µg/mL | > 10 µg/mL
B3 | > 10 µg/mL | > 10 µg/mL | > 10 µg/mL | > 10 µg/mL | > 10 µg/mL | > 10 µg/mL | 0.005 µg/mL
B4 | 0.125 µg/mL | 0.123 µg/mL | 0.146 µg/mL | 0.963 µg/mL | > 10 µg/mL | > 10 µg/mL | 0.104 µg/mL
B5 | > 10 µg/mL | > 10 µg/mL | > 10 µg/mL | > 10 µg/mL | > 10 µg/mL | > 10 µg/mL | > 10 µg/mL
B6 | 4.37 µg/mL | 2.39 µg/mL | 2.18 µg/mL | 5.51 µg/mL | 6.89 µg/mL | 4.19 µg/mL | 0.314 µg/mL
B7 | 0.0612 µg/mL | 0.0623 µg/mL | 0.0425 µg/mL | > 10 µg/mL | > 10 µg/mL | – | 0.074 µg/mL
B8 | > 10 µg/mL | > 10 µg/mL | > 10 µg/mL | > 10 µg/mL | > 10 µg/mL | > 10 µg/mL | 0.039 µg/mL
B9 | > 10 µg/mL | > 10 µg/mL | > 10 µg/mL | > 10 µg/mL | > 10 µg/mL | > 10 µg/mL | > 10 µg/mL
B10 | > 10 µg/mL | > 10 µg/mL | > 10 µg/mL | > 10 µg/mL | > 10 µg/mL | > 10 µg/mL | > 10 µg/mL
B11 | > 10 µg/mL | > 10 µg/mL | > 10 µg/mL | > 10 µg/mL | > 10 µg/mL | > 10 µg/mL | 0.016 µg/mL
B12 | 1.89 µg/mL | 1.28 µg/mL | 1.12 µg/mL | > 10 µg/mL | > 10 µg/mL | > 10 µg/mL | 0.469 µg/mL
B13 | > 10 µg/mL | > 10 µg/mL | > 10 µg/mL | > 10 µg/mL | > 10 µg/mL | > 10 µg/mL | 0.272 µg/mL
